In US7811577B2 (priority 2004, dated 2010):

Experiments:
[1] = system: D5 IgG binding to biotinylated 5-Helix; test: Biotinylated 5-Helix/D5 IgG interaction (competition) assay, AlphaScreen
[2] = system: D5-IgG binding to biotinylated IQN17; test: Competition of D5-IgG binding to biotinylated IQN17, AlphaScreen
[3] = Thermal denaturation (CD) in 2M guanidinium chloride; conditions: in the presence of 2M guanidinium chloride

Substance	D5 IgG binding in bio-5-Helix/D5 IgG interaction assay, in words [1]	other results
CCGGIKKEIEAIKKEQEAIKKKIEAIEKLLQLTVWGIKALAAAIA [CCIZN17Ala4]	bind D5 IgG but precise IC50s could not be determined	
CCGGIKKKIEAIEKLLQLTVWGIKQLQARIL [CCI10N17]	comparable or superior potency to IZN17 and CCIZN17	
IKKEIEAIKKEQEAIKKKIEAIEKLLQLTaWGIKQLQARIL (Ac-IKKEIEAIKKEQEAIKKKIEAIEKLLQLTAWGIKQLQARIL-NH2) [IZN17A6]		competition of D5-IgG binding to biotinylated IQN17, in words [2]: compete for D5 binding less effectively than wildtype IZN17 peptide
IKKKIEAIEKLLQLTVWGIKQLQARILGGCC [I10N17CC]	comparable or superior potency to IZN17 and CCIZN17	
S10N17: SEQ ID NO:101; minimized SZ scaffold fused to N17 (IEKKIEAIEKLLQLTVWGIKQLQARIL)		melting temperature / midpoint of thermal denaturation [3]: about 60 °C
